Measured values from several laboratories, pooled; numbers as filed in NIAID ChemDB.

Common to all: growth or infection tests; organism: HIV-1; cells: MT-4; measure: EC50

An empty or dashed field is not shown. Conditions beyond the fields shown may differ between rows. ECn: concentration that inhibits the pathogen or its effect by n%.

SMILES | strain | mutations | method | value
O=C1CC2CCC1C1C(=O)N(CC(O)CN3CCN(c4ccc(F)cc4)CC3)C(=O)C21 | - | - | MTT | >100 µM
Nc1nc(NC2CC2)c2ncn(CCOCP(=O)(O)O)c2n1 | IIIB | - | cytopathic effect / MTT | 0.11 µg/mL
COc1ncnc2c1ncn2O[C@H]1CS[C@@H](CO)O1 | - | - | - | >100 µg/mL
O=C(NCCc1ccccc1)Nc1nc2ccc(Cl)cc2s1 | - | - | RT activity | <1 µg/mL
CN(C)CC(O)CN1C(=O)C2C3CCC(C(=O)C3)C2C1=O | - | - | MTT | >100 µM
C=CCNc1nc(N)nc2c1ncn2CCOCP(=O)(O)O | IIIB | - | cytopathic effect / MTT | >100 µg/mL
CCc1c(Sc2ccccc2)n(COCc2ccccc2)c(=O)[nH]c1=O | A012B | - | p24 | 0.0019 µM
O=C1CC2CCC1C1C(=O)NC(=O)C21 | - | - | MTT | >100 µM
Nc1ncnc2c1ncn2O[C@@H]1CO[C@@H](CO)O1 | - | - | - | >100 µg/mL
O=C1[C@@H](Cc2ccccc2)NC(=S)N1Cc1ccccc1 | - | - | cytopathic effect / XTT | <10 µg/mL
Nc1nc(NC2CCCCC2)c2ncn(CCOCP(=O)(O)O)c2n1 | IIIB | - | cytopathic effect / MTT | 5.7 µg/mL
O=C1CC2CCC1C1C(=O)N(CCCCN3CCN(c4ncccn4)CC3)C(=O)C21 | - | - | MTT | >100 µM
COc1ccc(N(C)C(=O)[C@H](Cc2cc(F)cc(F)c2)NC(=O)CN2CCN(S(=O)(=O)c3ccccc3N)CC2=O)cc1 | IIIB | - | MTT | 0.52 µM
CCCc1c(Sc2ccccc2)n(COCCO)c(=O)[nH]c1=O | IIIB | - | cytopathic effect / MTT | 3.6 µM
CN(C)CCN1C(=O)C2C3C=CC(C3=C(c3ccccc3)c3ccccc3)C2C1=O | IIIB | - | cytopathic effect / MTT | >26 µM
CC1(C)C2CCC3C(C(=O)C=C4C5C[C@@](C)(C(=O)O)CC[C@]5(C)CC[C@]43C)[C@@]2(C)CC[C@@H]1O[C@@H]1O[C@H](C(=O)O)[C@@H](O[C@@H]2O[C@H](C(=O)O)[C@@H](O)[C@H](O)[C@H]2O)[C@H](O)[C@H]1O | EVK | - | p24 | 105 µg/mL
CCc1c(Cc2cc(C)cc(C)c2)n(COCC#Cc2ccccc2)c(=O)[nH]c1=O | IIIB | EFV-resistant (K103R V179D P225H) | MTT | 12 µM
CCOc1ccc2nc(NC(=O)NCCc3ccccc3)sc2c1 | - | - | cytopathic effect / XTT | >100 µg/mL
O=C1CC2CCC1C1C(=O)N(CCCCN3CCN(c4ccccc4O)CC3)C(=O)C21 | - | - | MTT | >100 µM
C[C@H](CC1CNC2C1CC(N)CN2N)OCP(=O)(O)O | IIIB | - | cytopathic effect / MTT | >100 µg/mL
CCc1c(Cc2cc(C)cc(C)c2)n(COCC#Cc2ccc(CO[Si](c3ccccc3)(c3ccccc3)C(C)(C)C)cc2)c(=O)[nH]c1=O | IIIB | K103N + Y181C | MTT | >100 µM
COc1ccc(N(C)C(=O)[C@H](Cc2cc(F)cc(F)c2)NC(=O)CN2CCN(S(=O)(=O)c3ccc(F)cc3)CC2=O)cc1 | IIIB | - | MTT | 0.24 µM
Nc1nc(=O)n([C@H]2O[C@@H](CO)[C@H](O)[C@H]2O)cc1F | IIIB | - | cytopathic effect / MTT | >100 µM
CC(=O)N1C(=O)[C@@H](Cc2ccc(Cl)cc2)NC1=S | - | - | cytopathic effect / XTT | >100 µg/mL
CC(C)CN(C[C@@H](O)[C@H](Cc1ccccc1)NC(=O)O[C@H]1CCOC1)S(=O)(=O)c1ccc2ncn(C)c2c1 | LAI WT | - | cytopathic effect / MTT | 0.02 µM
O=C1[C@@H](c2ccc(-c3ccccc3)cc2)NC(=S)N1c1ccccc1 | - | - | cytopathic effect / XTT | >10 µg/mL
CCc1c(Cc2ccccc2C)n(COCC#Cc2ccc(NC(=O)CBr)cc2)c(=O)[nH]c1=O | IIIB | WT | MTT | 0.07 µM
O=C(NCCc1ccccc1)Nc1nc2c(Cl)cccc2s1 | - | - | cytopathic effect / XTT | >10 µg/mL
Nc1ncnc2c1ncn2O[C@H]1CO[C@@H](CO)O1 | - | - | - | >100 µg/mL
Nc1nc(=O)n([C@@H]2C[C@H](O)[C@H](CO)O2)cc1F | IIIB | - | cytopathic effect / MTT | >100 µM
CN1CCN(C(=S)NCCc2ccccc2)CC1 | - | - | cytopathic effect / XTT | >100 µg/mL
CC(C)CN(C[C@@H](O)[C@H](Cc1ccccc1)NC(=O)OC(C)(C)C)S(=O)(=O)c1ccc2ncn(CCc3ccccc3)c2c1 | LAI WT | - | cytopathic effect / MTT | 0.398 µM
O=C1CC2CCC1C1C(=O)N(CCCCN3CCN(Cc4ccccc4)CC3)C(=O)C21 | - | - | MTT | >100 µM
Nc1nc2c(ncn2OC2COC(CO)O2)c(=O)[nH]1 | - | - | - | >100 µg/mL
CCN(CC)CCN1C(=O)C2C3C=CC(C3=C(c3ccccc3)c3ccccc3)C2C1=O | IIIB | - | cytopathic effect / MTT | >27 µM
O=C(NCCc1ccccc1)Nc1ccccn1 | - | - | cytopathic effect / XTT | >100 µg/mL
C[C@H](C[n+]1c[nH]c2c(N)nc(N)nc21)OCP(=O)(O)O | IIIB | - | cytopathic effect / MTT | 0.293 ± 0 µg/mL
Fc1cccc(Cl)c1CCNC(=S)Nc1nccs1 | - | - | cytopathic effect / XTT | <1 µg/mL
CCc1c(Cc2cc(C)cc(C)c2)n(COCC#CC#CCO)c(=O)[nH]c1=O | IIIB | Y181C | MTT | 0.8 µM
Nc1nc(=O)n([C@H]2O[C@@H](CO)[C@@H](O)[C@H]2O)cc1F | IIIB | - | cytopathic effect / MTT | >100 µM
CC1CCN(CC(O)CN2C(=O)C3C4CCC(C(=O)C4)C3C2=O)CC1 | - | - | MTT | >100 µM
COP(=O)(c1cc(C)cc(CCC#N)c1)c1c(C(N)=O)[nH]c2ccc(Cl)c(F)c12 | NL4-3 | K103N | p24 / ELISA | 0.0014 µM
O=C1CC2CCC1C1C(=O)N(CCCBr)C(=O)C21 | - | - | MTT | >100 µM
Cc1cccc(C)c1OCC(=O)N[C@@H](Cc1ccccc1)[C@H](O)CN(CC(C)C)S(=O)(=O)c1ccc2nc(N)[nH]c2c1 | LAI WT | - | cytopathic effect / MTT | 0.316 µM
O=C1CC2CCC1C1C(=O)N(CCCN3CCN(c4ccccc4O)CC3)C(=O)C21 | - | - | MTT | >100 µM
COc1ccc(N(C)C(=O)[C@H](Cc2cc(F)cc(F)c2)NC(=O)CN2CCN(S(=O)(=O)c3ccccc3)CC2=O)cc1 | IIIB | - | MTT | 0.2 µM

The last 4 rows once more:

O=C1CC2CCC1C1C(=O)N(CCCBr)C(=O)C21 ; method: MTT ; value: >100 µM
Cc1cccc(C)c1OCC(=O)N[C@@H](Cc1ccccc1)[C@H](O)CN(CC(C)C)S(=O)(=O)c1ccc2nc(N)[nH]c2c1 ; strain: LAI WT ; method: cytopathic effect / MTT ; value: 0.316 µM
O=C1CC2CCC1C1C(=O)N(CCCN3CCN(c4ccccc4O)CC3)C(=O)C21 ; method: MTT ; value: >100 µM
COc1ccc(N(C)C(=O)[C@H](Cc2cc(F)cc(F)c2)NC(=O)CN2CCN(S(=O)(=O)c3ccccc3)CC2=O)cc1 ; strain: IIIB ; method: MTT ; value: 0.2 µM